Test results as given in EP2450379B1 (Crucell Holland B.V., dated 2015).

Legend:
Assay in all cases: ELISA, IgG 5 µg/ml
[1] = target: recombinant HA, subtype H3 (A/Wyoming/3/2003(H3N2)) (influenza A virus A/Wyoming/3/2003 …)
[2] = target: recombinant HA, subtype H9 (A/Hong Kong/1073/99 (H9N2)) (influenza A virus A/Hong Kong/1073/99 …)
[3] = target: recombinant HA, subtype H7 (A/Netherlands/219/03 (H7N7)) (influenza A virus A/Netherlands/219/03 …)

B1: CR6262 (antibody, V domains shown)
VH: QVQLQQSGAEVKKPGSSVKVSCKVSGVIFSGSAISWVRQAPGQGLEWMGGISPLFGTTNYAQKFQGRVTITADQSTNTTYMEVNSLRYEDTAVYFCARGPKYYSEYMDVWGKGTTVTVSS
VL: DIQMTQSPSSLSASVGDRVTITCRASQGISSYLAWYQQKPGKVPTLLIYDASTLRSGVPSRFSGSGSATDFTLTISSLQPEDVATYYCQRYNSAPPITFGQGTRLEIKR
notes: human IgG1
OD 492nm [1]: 0.09 OD 492nm | OD 492nm [2]: 1.93 OD 492nm | OD 492nm [3]: 0.17 OD 492nm

B2: CR6268 (antibody, V domains shown)
VH: QVQLVQSGAEVKKPGSSVKVSCKASGGTFSSYAISWVRQAPGQGLEWMGGIMGMFGTTNYAQKFQGRVTITADEFTSAAYMELRSLRSEDTAVYYCARSSGYYPEYFQDWGQGTLVTVSS
VL: QSVLTQPPSESVSPGQTASVTCSGHKLGDKYVSWYQQKPGQSPVLLIYQDNRRPSGIPERFIGSNSGNTATLTISGTQALDEADYYCQAWDSSTAVFGGGTKLTVLG
notes: human IgG1
OD 492nm [1]: 0.08 OD 492nm | OD 492nm [2]: 2.16 OD 492nm | OD 492nm [3]: 0.15 OD 492nm

B3: CR6272 (antibody, V domains shown)
VH: QMQLVQSGAEVKKPGSSVKVSCKASGGTFSSYAITWVRQAPGQGLEWMGGIIGMFGSTNYAQNFQGRVTITADESTSTAYMELSSLRSEDTAVYYCARSTGYYPAYLHHWGQGTLVTVSS
VL: QSALTQPRSVSGSPGQSVTISCTGTSSDVGGYNYVSWYQQHPGKAPKLMIYDVSKRPSGVPDRFSGSKSGNTASLTISGLQAEDEADYYCSSYTSSSTHVFGTGTKVTVLG
notes: human IgG1
OD 492nm [1]: 0.07 OD 492nm | OD 492nm [2]: 0.96 OD 492nm | OD 492nm [3]: 0.15 OD 492nm

B4: CR6307 (antibody, V domains shown)
VH: QVQLVQSGGGLVKPGGSLRLSCAASGFTFSSYSMNWVRQAPGKGLEWVSSISSSSSYIYYVDSVKGRFTISRDNAKNSLYLQMNSLRAEDTAVYYCARGGGSYGAYEGFDYWGQGTLVTVSS
VL: EIVLTQSPGTLSLSPGERATLSCRASQRVSSYLAWYQQKPGQAPRLLIYGASTRAAGIPDRFSGSGSGTDFTLTISRLEPEDSAVYYCQQYGRTPLTFGGGTKVEIKR
notes: human IgG1
OD 492nm [1]: 0.11 OD 492nm | OD 492nm [2]: 0.17 OD 492nm | OD 492nm [3]: 0.22 OD 492nm

B5: CR6323 (antibody, V domains shown)
VH: B3 VH with Q1E, M2V, Q6E, A33G, T35S, G50D, V68L, T100S, H108P
VL: not shown
notes: human IgG1
OD 492nm [1]: 0.07 OD 492nm | OD 492nm [2]: 2.27 OD 492nm | OD 492nm [3]: 0.15 OD 492nm

B6: CR6325 (antibody, V domains shown)
VH: EVQLVESGAEVKKPGSSVKVSCKASGGTFSFYSMSWVRQAPGQGLEWMGGIIPMFGTTNYAQKFQGRVTITAVESTSTAYMEVSSLRSEDTAVYYCARGDKGIYYYYMDVWGKGTTVTVSS
VL: B3 VL with R8A, V18I, D52E, K55N, P61S, D62N, H99L
notes: human IgG1
OD 492nm [1]: 0.07 OD 492nm | OD 492nm [2]: 2.04 OD 492nm | OD 492nm [3]: 0.17 OD 492nm

B7: CR6328 (antibody, V domains shown)
VH: EVQLVESGAEVKKPGSSVKVSCKASGHIFSGYAISWVRQAPGQGLEWMGGIIPIFGTTNYAQKFQGRVTITADQSTSTAYMDLSNLRSEDTAVYYCARVKDGYCTLTSCPVGWYFDLWGRGTLVTVSS
VL: not shown
notes: human IgG1
OD 492nm [1]: 0.07 OD 492nm | OD 492nm [2]: 2.38 OD 492nm | OD 492nm [3]: 0.16 OD 492nm

B8: CR6329 (antibody, V domains shown)
VH: EVQLVQSGAEVKKPGSSVKVSCKASGGIFRSNSISWVRQAPGQGLEWMGGIFALFGTTDYAQKFQGRVTITADESSTTVYLELSSLTSEDTAVYYCARGSGYTTRNYFDYWGQGTLVTVSS
VL: EIVLTQSPGTLSLSPGERATLSCRASQSVSSNYLGWYQQKPGQAPRLLIYGASSRASGIPDRFSGGGSGTDFTLTISRLEPEDFAVYYCQQYGSSPLTFGGGTKVEIKR
notes: human IgG1
OD 492nm [1]: 0.08 OD 492nm | OD 492nm [2]: 2.16 OD 492nm | OD 492nm [3]: 0.17 OD 492nm

B9: CR6332 (antibody, V domains shown)
VH: QVQLVQSGAEVKKPGSSVKVSCKASGGPFRNFAINWVRQAPGQGLEWMGGIIAVFGTTKYAHKFQGRVTITADDSTNTAYMELGSLKSEDTAVYYCARGPHYYSSYMDVWGEGTTVTVSS
VL: DIQLTQSPSSLSASVGDRVTITCRASQGISTYLAWYQQKPGKVPKLLIYAASTLQSGVPSRFSGSGSGTDFTLTISSLQPEDVATYYCQKYNSAPSFGPGTKVDIKR
notes: human IgG1
OD 492nm [1]: 0.15 OD 492nm | OD 492nm [2]: 2.11 OD 492nm | OD 492nm [3]: 0.26 OD 492nm

B10: CR6334 (antibody, V domains shown)
VH: EVQLVETGAEVKKPGSSVKVPCKSSGSPFRSNAVSWVRQAPGQGLEWVGGILGVFGSPSYAQKFQGRVTITADESTNTVHMELRGLRSEDTAVYYCARGPTYYYSYMDVWGKGTTVTVSS
VL: SYVLTQPPSESVAPGQTARITCGGNNIGRNSVHWYQQKPGQAPVLVVYDDSDRPSGIPERFSGSKSGNTATLIISRVEVGDEADYYCQVWHSSSDHYVFGTGTKVTVLG
notes: human IgG1
OD 492nm [1]: 0.07 OD 492nm | OD 492nm [2]: 1.82 OD 492nm | OD 492nm [3]: 0.15 OD 492nm

B11: CR6336 (antibody, V domains shown)
VH: B2 VH with V2M, M52F, T58A, R84S, R87G, V93M, E105Q
VL: B8 VL with L4M, E17Q, N32S, G35A, I49M, S57T, G66S, P96S, V105L
notes: human IgG1
OD 492nm [1]: 0.1 OD 492nm | OD 492nm [2]: 2.02 OD 492nm | OD 492nm [3]: 0.18 OD 492nm

B12: CR6342 (antibody, V domains shown)
VH: QVQLVQSGAEVKKPGSSVKVSCKASGGFFSSYAISWVRQAPGQGLEWMGGVIPIFRTANYAQNFQGRVTITADEFTSYMELSSLRSDDTAVYYCARLNYHDSGTYYNAPRGWFDPWGQGTLVTVSS
VL: DIQMTQSPDSLAVSLGEKATINCKSSQSILNSSNNKNYLAWYQQKPGQPPKLLIYWASTRESGVPDRFSGSGSGTDFTLTISSLQAEDVAVYYCQQYYSSPPTFGQGTKVEIKR
notes: human IgG1
OD 492nm [1]: 0.09 OD 492nm | OD 492nm [2]: 2.13 OD 492nm | OD 492nm [3]: 0.17 OD 492nm

B13: CR6343 (antibody, V domains shown)
VH: QVQLVQSGAEVKKPGSSVKVSCKASGVTFSYYAMSWVRQAPGQGLEWMGGISPMFGTTTYAQKFQGRVTITADDSTSTAYMEVRSLRSEDTAVYYCARSSNYYDSVYDYWGQGTLVTVSS
VL: B10 VL with S1Q, Y2S, L4V, N25H, R29S, D50N, K65N, I73T, V79A, H91G
notes: human IgG1
OD 492nm [1]: 0.07 OD 492nm | OD 492nm [2]: 1.88 OD 492nm | OD 492nm [3]: 0.15 OD 492nm

B14: CR6344 (antibody, V domains shown)
VH: QVQLVQSGAEVKKPGSSVRVSCKASGSIFRNYAMSWVRQAPGQGLEWMGGIIAIFGTPKYAQKFQGRVTITADESTSTVYMELSGLRSEDTAMYYCARIPHYNFGSGSYFDYWGQGTLVTVSS
VL: TVLTQPPSVSGAPGQRVTISCTGSSSNIGAGYDVHWYQQLPGTAPKLLIYGNSNRPSGVPDRFSGSKSGTSATLGITGLQTGDEADYYCGTWDSSLSAYVFGTGTKVTVLG
notes: human IgG1
OD 492nm [1]: 0.09 OD 492nm | OD 492nm [2]: 2.15 OD 492nm | OD 492nm [3]: 0.18 OD 492nm

B15: CR6257 (antibody, V domains shown)
VH: QVQLVQSGAEVKKPGSSVKVSCKASGGPFRSYAISWVRQAPGQGPEWMGGIIPIFGTTKYAPKFQGRVTITADDFAGTVYMELSSLRSEDTAMYYCAKHMGYQVRETMDVWGKGTTVTVSS
VL: B3 VL with R8A, S9A, V18I, D52E, K55N, P61S, D62N, H99Y
notes: human IgG1
OD 492nm [1]: 0.08 OD 492nm | OD 492nm [2]: 2.06 OD 492nm | OD 492nm [3]: 0.16 OD 492nm

Substitutions are numbered along the chain they refer to.
